Data set [1] deals with uPA-cleavable immunotoxin variant with tryptophan restored at the P'2 position.

For chymotrypsin, the “cleavage by chymotrypsin, reducing and non-reducing SDS-PAGE” value is “the sem1 and 2 immunotoxins were cleaved by these proteases” in the data set with HB21dsFvPE40(sem1); “the sem1 and 2 immunotoxins were cleaved by these proteases” with HB21dsFvPE40(sem2).
With prostate specific antigen, the “cleavage by PSA, SDS-PAGE (1:10 enzyme:substrate, 6 h, 37 C, pH 7.0)” value with HB21dsFvPE40(sem1) is “only ˜20% of HB21dsFvPE40(sem1 ) was cleaved”.
As for trypsin, the “cleavage by trypsin, reducing and non-reducing SDS-PAGE” value in the data set on HB21dsFvPE40(sem1) was “the sem1 and 2 immunotoxins were cleaved by these proteases”; in the data set on HB21dsFvPE40(sem2) it was “the sem1 and 2 immunotoxins were cleaved by these proteases”.
Take urokinase: the “cleavage by urokinase, reducing and non-reducing SDS-PAGE” value was “the sem1 and 2 immunotoxins were cleaved by these proteases” in the data set with HB21dsFvPE40(sem1); “the sem1 and 2 immunotoxins were cleaved by these proteases” with HB21dsFvPE40(sem2). Further, the “cleavage by uPA” value in data set [1] was “This mutation retained the distinction of being cleaved by uPA and not by furin”.

(Values after patent US6426075.)
